The results in this text go back to publication PMC8036510, “The Inhibitory Effects of Plant Derivate Polyphenols on the Main Protease of SARS Coronavirus 2 and Their Structure–Activity Relationship” (Molecules, 2021).

The assay addresses SARS-CoV-2 M^pro (Severe acute respiratory syndrome coronavirus 2, UniProt P0DTD1). Particulars: pH 7.5.

“Catechin gallate [Catechin gallate (CG)]”: the “Inhibition (%)” value came out at 21%.
